The series concerns biomass (activated sludge) of the SMBR. Briefly: SMBR treatment of real municipal wastewater spiked by BPA. Conditions: inlet 0.635-0.822 mg/L, HRT 6 h, 6.0 g VSS/L.

Regarding `CC(C)(c1ccc(O)cc1)c1ccc(O)cc1` [BPA, 2,2-Bis(4-hydroxyphenyl)propane], the “Removal rate, BPA” value is “≧98.9%”. The “Outlet conc. of SMBR (in the filtrate), BPA” value (limit of detection 0.001 mg/L) is given as “≦0.001 mg/L”.

For the origin of these results see patent US9199200B2, “Submerged membrane bioreactor system and biological methods for removing bisphenol compounds from municipal wastewater” (Centre de Recherche Industrielle de Québec (CRIQ), priority 2010, dated 2015).
